A mixed list of measured activities; the numbers were collected in NIAID ChemDB.

Blank or dashed fields: not listed here.

SMILES | read by | dose | strain or isolate | kind | agent | endpoint | target | result
O=C1NC(=S)N/C1=C\c1ccccc1 |  |  | H37Rv | culture | Mycobacterium tuberculosis | MIC |  | 50 µg/mL
OCc1cccc(-c2cncc(N3CCN(CCN4CCCC4)CC3)n2)c1 |  |  |  | target | Cytomegalovirus | IC50 | UL97 kinase | <100 µM
CCOc1cc(/C=C2/SC(=O)N(CC)C2=O)ccc1O | BACTEC |  | H37Rv | culture | Mycobacterium tuberculosis | MIC bound |  | >12.5 µg/mL
Fc1ccc(N2CCCCC2)c(NC(=S)c2ccncc2)c1 | kinase activity | 10 µM |  | host protein |  | inhibition | SAPK3 | -10%
Fc1cccc(-c2cncc(N3CCN(c4ccc(F)cc4F)CC3)n2)c1 |  | 10 µM |  | target | Cytomegalovirus | inhibition | UL97 kinase | >15%
O=C1C2OC2C(O)(CCN(Cc2ccc3c(c2)OCO3)C(=O)C(F)(F)F)C2OC12 | resazurin |  | H37Rv | culture | Mycobacterium tuberculosis | MIC bound |  | >6.25 µg/mL
NC1=NCC(=O)N1 |  |  | H37Rv | culture | Mycobacterium tuberculosis | MIC |  | >100 µg/mL
Cc1c(N=Nc2cccc(Cl)c2Cl)c(-c2ccccc2)nn1C(=S)S | BACTEC |  | H37Rv | culture | Mycobacterium tuberculosis | MIC |  | 16 µg/mL
COc1ccc(-c2cncc(N3CCN(c4cccc5[nH]ccc45)CC3)n2)cc1 |  | 1 µM |  | target | Cytomegalovirus | inhibition | UL97 kinase | <50%
C/C(CCl)=N\NC1=NC(C)(CCl)P(=O)(NNc2ncccn2)S1 | BACTEC | 12.5 µg/mL | H37Rv | culture | Mycobacterium tuberculosis | inhibition |  | 0%
C/C(=C/c1c(Br)cc(Br)c(N)c1Br)C(=O)O |  |  | H37Rv | culture | Mycobacterium tuberculosis | MIC |  | >100 µg/mL
CC1CCCCc2nc3c(c(=O)n21)CCCC3 | BACTEC |  | H37Rv | culture | Mycobacterium tuberculosis | MIC bound |  | >12.5 µg/mL
O=C(O)c1cc(-c2ccccc2O)nc2cc(S(=O)(=O)[O-])ccc12.[Na+] |  |  | H37Rv | culture | Mycobacterium tuberculosis | MIC |  | 100 µg/mL
CN(C)c1ccc(-c2cncc(N3CCN(c4ccc(F)cc4F)CC3)n2)cc1 |  | 1 µM |  | target | Cytomegalovirus | inhibition | UL97 kinase | <50%
O=C(O)C(O)C(O)C(=O)O |  |  | H37Rv | culture | Mycobacterium tuberculosis | MIC |  | >100 µg/mL
Fc1cccc(-c2cncc(N3CCN(c4ccccc4)CC3)n2)c1 |  |  |  | target | Cytomegalovirus | IC50 | UL97 kinase | <100 µM
Cc1c(C(=O)CC(=O)C(=O)Nc2ccc(Cl)c(Cl)c2)[n+](=O)c2ccccc2n1[O-] | BACTEC |  | H37Rv | culture | Mycobacterium tuberculosis | MIC bound |  | >12.5 µg/mL
Cc1c(N)cc(C(=O)O)cc1[N+](=O)[O-] |  |  | H37Rv | culture | Mycobacterium tuberculosis | MIC |  | >100 µg/mL
CN(C)CCN(C)c1cncc(-c2ccc3ccccc3c2)n1 |  |  |  | target | Cytomegalovirus | IC50 | UL97 kinase | <1 µM
Cc1cc2nc3ccc(N=Nc4ccc(N(C)C)cc4)cc3n(-c3ccccc3)c-2cc1=N |  |  | H37Rv | culture | Mycobacterium tuberculosis | MIC |  | 0.2 µg/mL
CCOC(=O)c1ccc(Br)c([N+](=O)[O-])c1 |  |  | H37Rv | culture | Mycobacterium tuberculosis | MIC |  | 100 µg/mL

A second listing of 3 rows from above:

SMILES | read by | dose | strain or isolate | kind | agent | endpoint | target | result
Fc1cccc(-c2cncc(N3CCN(c4ccc(F)cc4F)CC3)n2)c1 |  | 10 µM |  | target | Cytomegalovirus | inhibition | UL97 kinase | >15%
Cc1cc2nc3ccc(N=Nc4ccc(N(C)C)cc4)cc3n(-c3ccccc3)c-2cc1=N |  |  | H37Rv | culture | Mycobacterium tuberculosis | MIC |  | 0.2 µg/mL
Fc1cccc(-c2cncc(N3CCN(c4ccccc4)CC3)n2)c1 |  |  |  | target | Cytomegalovirus | IC50 | UL97 kinase | <100 µM

ICn: concentration for n% inhibition. Conditions beyond the fields shown may differ between rows. MIC bound: limit read from a one-dose screen. Inhibition is in % at the dose shown (toxicity tests: loss of growth or viability).